# Data: PubChem BioAssay AID1159524 (National Center for Advancing Translational Sciences (NCATS), 2015)
# The list shows a part of the results, in another mix than the full data. Inconclusive results are not listed. Activity calls are given as the source filed them. The call rests on the fitted dose curve; tested in HEK293T cells.
# Test: High Throughput Screening for Foot and Mouth Disease Virus Antivirals; further: read-out not given here; nearly all actives have a fitted effect of over 45% in size
# Details: FMDV antiviral cell-based qHTS; series mostly up to 57.9 µM; activity change, negative = inhibition: at the top concentration
# On the % scale 0 is the no-effect control and ±100 the full control effect; potency means the concentration at half of the fitted maximal effect.
Compound,"activity change, negative = inhibition",Potency
CCN(N=Nc1nonc1N)c1nonc1N,inactive: -9.36%,–
Nc1cccc2ccc([As](=O)(O)O)cc12,inactive: -9.12%,–
CN(C(=O)Cc1ccc(Cl)c(Cl)c1)[C@H]1CCCC[C@@H]1N1CCCC1,–,inactive
Cc1ccc(NP(=O)(Oc2ccccc2F)Oc2ccccc2F)nc1,inactive: 7.99%,–
Cc1cc(SC(NC(=O)c2ccc(F)cc2)C(Cl)(Cl)Cl)ncn1 (configuration not stated),inactive: 0%,–
CCOP(=O)(Nc1ccccc1)OCC,inactive: -16.9%,–
CCCC1OP(N)(=O)OCC1CC (configuration not stated),inactive: 30.4%,–
CC(=O)Nc1ccc([As](=O)(O)O)cc1,inactive: -4.05%,–
O=C(O)c1ccccc1[As](=O)(O)O,inactive: -7.17%,–
O=P(Nc1nc2ccc(Cl)cc2s1)(c1ccccc1)c1ccccc1,inactive: 31.4%,–
CN(C)P(=O)(N(C)C)n1c(Nc2ccccc2)nnc1-c1ccccc1,inactive: 29%,–
O=[N+]([O-])C1C(O)C(O)C([N+](=O)[O-])C(O)C1O (configuration not stated),inactive: -20.8%,–
Nc1cc(N)c2nonc2c1[N+](=O)[O-],inactive: -3.26%,–
O=[N+]([O-])c1cc([N+](=O)[O-])c(Nc2ccccn2)c([N+](=O)[O-])c1,–,active: 25.1 µM
O=C(NC(Sc1ccncn1)C(Cl)(Cl)Cl)c1ccccc1 (configuration not stated),inactive: 4.08%,–
Cc1ccc(OP(=O)(Nc2nccs2)Oc2ccc(C)cc2)cc1,inactive: 34.4%,–
COc1ccccc1OP(=O)(Nc1ccc(C)cn1)Oc1ccccc1OC,inactive: -16.5%,–
CN1CCCC(OC(=O)C(c2ccccc2)c2ccccc2)C1 (configuration not stated),inactive: -15.4%,–
Clc1ccc(Cl)c(NC2=NCC(CBr)S2)c1 (configuration not stated),inactive: -8.04%,–
NC(=O)c1cc([N+](=O)[O-])cc([N+](=O)[O-])c1N,inactive: -11.8%,–
Cc1ccc(N/C(=N/P(=O)(N2CCOCC2)N2CCOCC2)N2CCOCC2)cc1,inactive: 5.06%,–
CN(C(=O)Cc1ccc(Cl)c(Cl)c1)[C@H]1CCCC[C@H]1N1CCCC1,inactive: -10.3%,–
CN(C)C(=O)OCCc1n(C)cc[n+]1C,inactive: -4.08%,–
CC(C)c1nc(Nc2ccccc2)n(P(=O)(N(C)C)N(C)C)n1,inactive: -18.3%,–
CC(C)=N/N=C(\N)N[N+](=O)[O-],inactive: -9.32%,–
CC(=O)C1=CCCC2CCC1N2 (configuration not stated),inactive: -12.9%,–

Compound,"activity change, negative = inhibition",Potency
CC1CCN(C(=O)Oc2c(Cl)cc(Cl)c3cccnc23)CC1,inactive: 13.1%,–
c1cc(-c2nn[nH]n2)ccc1-c1nn[nH]n1,inactive: -15.5%,–
Nc1ccc([As](=O)(O)c2ccc(N)cc2)cc1,inactive: -0.643%,–
CCN(/C(=N/P(=O)(N1CCOCC1)N1CCOCC1)N1CCOCC1)c1ccc(OC)cc1,inactive: -2.98%,–
O=C(OCCCN1CCCC1)C(O)(c1ccccc1)C1CCCCC1 (configuration not stated),inactive: -26.6%,–
CC(=O)N1C2C3N(C(C)=O)C1C1N(C(C)=O)C(C(N1C(C)=O)N3C(C)=O)N2C(C)=O,inactive: 9.31%,–
O=[N+]([O-])c1cccc2n[nH]nc12,inactive: 19.6%,–
O=[N+]([O-])c1cc([N+](=O)[O-])c(CCNc2ccccc2)c([N+](=O)[O-])c1,inactive: -22%,–
Cc1ccc(NP(=O)(Oc2ccccc2)Oc2ccccc2)nc1,inactive: 45.8%,–
COc1ccc(C2=NCC(CBr)S2)cc1 (configuration not stated),inactive: 25.4%,–
CCN(CC)CC(O)COC(=O)C(O)(c1ccccc1)C1CCCCC1 (configuration not stated),inactive: -8.73%,–
COC(=O)C1(C)COP(=O)(Nc2ccccc2)OC1 (configuration not stated),inactive: -0.023%,–
O=[N+]([O-])c1cccc(NC2=NCC(CBr)S2)c1 (configuration not stated),inactive: 9.35%,–
O=C(O)CNc1ccc([As](=O)(O)O)cc1,inactive: -3.87%,–
CC(C)(C)C(=O)NC(Sc1ccncn1)C(Cl)(Cl)Cl (configuration not stated),inactive: -16.6%,–
O=[N+]([O-])c1ncn(CCn2ncnc2[N+](=O)[O-])n1,inactive: -7.33%,–
O=C(Nc1cc([As](=O)(O)O)ccc1O)c1ccccc1,inactive: -8.33%,–
O=P1(N(CCCl)CCCl)OCCCS1 (configuration not stated),inactive: 12.4%,–
C(Cc1nn[nH]n1)Cc1nn[nH]n1,inactive: -16.1%,–
Nc1ccc([As](=O)(O)c2ccc([N+](=O)[O-])cc2)cc1,inactive: 25.6%,–
O=C(OC1CN2CCC1CC2)c1cccc(Cl)c1 (configuration not stated),inactive: -5.13%,–
O=[N+]([O-])c1ncn(CCn2cnc([N+](=O)[O-])n2)n1,inactive: -11.1%,–
O=[N+]([O-])c1ccc(OP2(=O)COCCO2)cc1 (configuration not stated),inactive: -4.46%,–
O=[As](O)(c1ccccc1)c1ccc(O)cc1,inactive: 6.37%,–
C[C@H]1OP(=O)(Oc2ccccc2)[C@H](O)[C@H](O)[C@H]1N=[N+]=[N-] (some centres not stated),inactive: -10.3%,–
O=P(Nc1nc2ccccc2s1)(c1ccccc1)c1ccccc1,inactive: 74.6%,–

Compound,"activity change, negative = inhibition",Potency
CN(C)CCOC(=O)C(O)(c1ccccc1)C1CCCCC1 (configuration not stated),inactive: -1.71%,–
COc1ccc(N)c([N+](=O)[O-])c1[N+](=O)[O-],inactive: 0.924%,–
CN(C)C1(CNC(=O)c2ccc(Cl)c(S(N)(=O)=O)c2)CCCCC1,inactive: -7.46%,–
O=P(Nc1ccccn1)(c1ccc(Br)cc1)c1ccc(Br)cc1,inactive: 66.4%,–
CCN(CCCl)Cc1ccccc1C,inactive: -13.3%,–
c1nnnn1CCn1cnnn1,inactive: 1.69%,–
O=P(Nc1nccs1)(c1ccccc1)c1ccccc1,inactive: -9.77%,–
CC(C)C(=O)NC(Sc1ccccc1)C(Cl)(Cl)Cl (configuration not stated),inactive: -12.1%,–
CC(=O)Nc1ccc(Oc2c([N+](=O)[O-])cc([N+](=O)[O-])cc2[N+](=O)[O-])cc1,inactive: -8.79%,–
CC(=O)Nc1ccc([As](=O)(O)O)c(O)c1,inactive: -13.9%,–
COC(=O)C1(C)COP(=O)(NCc2ccccc2)OC1 (configuration not stated),inactive: -20.8%,–
CC(=O)c1ccc(N2CC2c2ccncc2)cc1 (configuration not stated),inactive: -1.46%,–
C[C@H]1OP(=O)(Oc2ccccc2)C[C@@H]2O[C@@H]21 (some centres not stated),inactive: -14.1%,–
C[C@@H]1C=CCP(=O)(Oc2ccccc2)O1 (some centres not stated),inactive: -6.36%,–
Cc1ccccc1CN(C)C(=O)COC(=O)C(O)(c1ccccc1)c1ccccc1,inactive: -0.809%,–
CCc1cc(O)c([N+](=O)[O-])c(C)c1[N+](=O)[O-],inactive: -25.5%,–
CC(C)(C)C(=O)NC(Sc1ccccc1)C(Cl)(Cl)Cl (configuration not stated),inactive: -17.8%,–
CCOc1ccc(C2=NCC(CBr)S2)cc1 (configuration not stated),inactive: 6.65%,–
O=P1(Nc2nc3ccc(Cl)cc3s2)COc2ccccc2O1 (configuration not stated),inactive: 15%,–
CN(C)C(=O)Oc1noc2ccccc12,inactive: -6.7%,–
Cc1ccc(OP(=O)(Nc2ccccn2)Oc2ccc(C)cc2)cc1,inactive: -18.8%,–
CC(=O)NC(SC(=S)N(CC(C)C)CC(C)C)C(Cl)(Cl)Cl (configuration not stated),inactive: 0%,–
COC(=O)c1cc2c(s1)N=C(c1ccccc1)N(C)P2(=O)N1CCOCC1 (configuration not stated),inactive: -5.69%,–
CCC(=O)N1C2C3N(C(=O)CC)C1C1N(C(=O)CC)C(C(N1C(=O)CC)N3C(=O)CC)N2C(=O)CC,inactive: -0.0905%,–
CCN(CC)CCCOC(=O)C(O)(c1ccccc1)C1CCCCC1 (configuration not stated),inactive: -11.6%,–
